# Tests used:
# [1] = target: GnRH binding sites on neoplastic cells (plasma membranes of the SW-48 colon adenocarcinoma cell line in the binding assay)
# [2] = target: GnRH binding sites on neoplastic cells (plasma membranes of the SW-48 colon adenocarcinoma cell line in the binding assay); remark: listed apart in the source
substance,measurement,setting,value
Met-GnRH-PE66 chimeric toxin (from UniProt P01148),"ID50, cytotoxic effect on a renal cell carcinoma primary culture (µg total protein/well)",[1],1.2
same,"ID50, cytotoxic activity on Caco2 colon adenocarcinoma cells (µg total protein/well)",[2],0.4
same,"ID50, cytotoxic activity on HT-29 colon adenocarcinoma cells (µg total protein/well)",[2],1.2
same,"ID50, cytotoxic activity on HeLa cervix adenocarcinoma cells (µg total protein/well)",[2],1.8
same,"ID50, cytotoxic activity on HepG2 hepatocarcinoma cells (µg total protein/well)",[2],0.3
same,"ID50, cytotoxic activity on MDA MB-231 breast adenocarcinoma cells (µg total protein/well)",[2],2.3
